Experimental data as given in patent US11246922B1 (Elidan America, LLC., priority 2021, dated 2022).

Assay: peptide made by a vendor (peptide synthesis; ChemMatrix Rink Amide resin; 2-chlorotrityl chloride resin; DIC/Cl-HOBt)
Settings: whole synthesis

| Sequence | final purity (method not given) (run 1) [%] | final purity (method not given) (run 2) [%] |
| --- | --- | --- |
| CVNDTFAGSTFISDEVD | 98.76 | >98 |
| CVNDTFAGSTFISDEVDGVDEVAKKKSK | 98.25 | >98 |

Plain letter strings leave the end groups untold.
